Anti-infective test results gathered from many reports (values: NIAID ChemDB through PubChem).

Shared fields: growth or infection tests; organism: HIV-1; read-out: inhibition

An empty or dashed field is not shown. Neighbouring rows are from separate reports. Inhibition is in % at the dose shown (toxicity tests: loss of growth or viability).

| smiles | conditions | method | tested at | cell line | strain | mutations | result |
|---|---|---|---|---|---|---|---|
| CC(C)COC(=O)N1c2ccc3ccccc3c2C=CC1C#N | - | syncytia | 50 µM | MOLT-3 | IIIB | - | 37.5% |
| N#Cc1cc(Cl)cc(Oc2cc(OCc3[nH]nc4ncccc34)ccc2Cl)c1 | - | - | 0.01 µM | MT-4 | - | - | >95% |
| O=C1CCC(N2C(=O)c3ccccc3C2=O)C(=O)N1 | - | RT activity | 50 µg/mL | Macrophage | JR-FL | - | 60% |
| N#Cc1cc(Cl)cc(Oc2c(Cl)ccc3c2cnn3Cc2[nH]nc3nc(N)ccc23)c1 | - | - | 0.068 µM | MT-4 | - | Y181C | >95% |
| CO[C@@]1(C)/C(=C/C[C@H](C)CO[C@@H]2O[C@H](CO)[C@@H](O)[C@H](O)[C@H]2O)O[C@H]2C[C@H]3[C@@H]4CC=C5C[C@@H](O[C@@H]6O[C@H](CO)[C@H](O[C@@H]7O[C@H](CO)[C@@H](O)[C@H](O[C@@H]8OC[C@@H](O)C(O)[C@H]8O)[C@H]7O[C@@H]7O[C@H](CO)[C@@H](O)[C@H](O)[C@H]7O)[C@H](O)[C@H]6O)CC[C@]5(C)[C@H]4CC[C@]3(C)[C@H]21 | pseudotyped | luciferase / single cycle | 30 µM | SupT1 | - | - | 48.63% |
| CC(=O)C1=CN(C(=O)OCC(C)C)C=CC1C#N | - | syncytia | 50 µM | MOLT-3 | IIIB | - | 0% |
| C=C(C)[C@@H]1CC[C@]2(C(=O)NCCCCCCCC(=O)N[C@@H](CC(C)C)[C@@H](O)CC(=O)O)CC[C@]3(C)[C@H](CC[C@@H]4[C@@]5(C)CC[C@H](O)C(C)(C)[C@@H]5CC[C@]43C)[C@@H]12 | - | syncytia | 10 µM | HeLa P4 + HeLa | LAI | GP41-Q39H | >99% |
| C[C@@H](C/C=C1\O[C@H]2C[C@H]3[C@@H]4CC=C5C[C@@H](O[C@@H]6O[C@H](CO)[C@H](O[C@@H]7O[C@H](CO)[C@@H](O)[C@H](O[C@@H]8OC[C@@H](O)C(O)[C@H]8O)[C@H]7O[C@@H]7O[C@H](CO)[C@@H](O)[C@H](O)[C@H]7O)[C@H](O)[C@H]6O)CC[C@]5(C)[C@H]4CC[C@]3(C)[C@H]2[C@]1(C)O)CO[C@@H]1O[C@H](CO)[C@@H](O)[C@H](O)[C@H]1O | pseudotyped | luciferase / single cycle | 30 µM | SupT1 | - | - | 51% |
| CC(C)OC(=O)N1c2ccc3ccccc3c2C=CC1C#N | - | syncytia | 50 µM | MOLT-3 | IIIB | - | 0% |
| CO[C@H](C[C@H](C)CO[C@@H]1O[C@H](CO)[C@@H](O)[C@H](O)[C@H]1O)C1=C(C)[C@H]2[C@H](C[C@H]3[C@@H]4CC=C5C[C@@H](O[C@@H]6O[C@H](CO)[C@H](O[C@@H]7O[C@H](CO)[C@@H](O)[C@H](O[C@@H]8OC[C@@H](O)C(O)[C@H]8O)[C@H]7O[C@@H]7O[C@H](CO)[C@@H](O)[C@H](O)[C@H]7O)[C@H](O)[C@H]6O)CC[C@]5(C)[C@H]4CC[C@@]32C)O1 | pseudotyped | luciferase / single cycle | 30 µM | SupT1 | - | - | 50.15% |
| C=CCCOC(=O)N1c2ccc3ccccc3c2C=CC1C#N | - | syncytia | 50 µM | MOLT-3 | IIIB | - | 0% |
| N#Cc1cc(Cl)cc(Oc2c(Cl)ccc3c2ncn3Cc2[nH]nc3ncccc23)c1 | 50% human serum | - | 0.39 µM | MT-4 | - | - | >95% |
| CC(=O)[C@H]1[C@@H](OC(=O)CC[C@H](C)CO[C@@H]2O[C@H](CO)[C@@H](O)[C@H](O)[C@H]2O)C[C@H]2[C@@H]3CC=C4C[C@@H](O[C@@H]5O[C@H](CO)[C@H](O[C@@H]6O[C@H](CO)[C@@H](O)[C@H](O[C@@H]7OC[C@@H](O)C(O)[C@H]7O)[C@H]6O[C@@H]6O[C@H](CO)[C@@H](O)[C@H](O)[C@H]6O)[C@H](O)[C@H]5O)CC[C@]4(C)[C@H]3CC[C@@]21C | pseudotyped | luciferase / single cycle | 30 µM | SupT1 | - | - | 51.99% |
| C[C@H]1[C@H](O)[C@@H](C)/C=C/C=C/C=C/C=C/C=C/C=C/C=C/[C@H](O[C@@H]2O[C@H](C)[C@@H](O)[C@H](N)[C@@H]2O)C[C@@H]2O[C@](O)(C[C@@H](O)C[C@@H](O)CC[C@H](O)[C@@H](O)C[C@@H](O)CC(=O)O[C@H]1C)C[C@H](O)[C@H]2C(=O)O | - | p24 / RT activity | 3.8 µM | PBMC | 92UG001 CLADE D X4/X5 (SI) | - | 90% |
| CO[C@@H](C[C@H](C)CO[C@@H]1O[C@H](CO)[C@@H](O)[C@H](O)[C@H]1O)C1=C(C)[C@H]2[C@H](C[C@H]3[C@@H]4CC=C5C[C@@H](O[C@@H]6O[C@H](CO)[C@H](O[C@@H]7O[C@H](CO)[C@@H](O)[C@H](O[C@@H]8OC[C@@H](O)C(O)[C@H]8O)[C@H]7O[C@@H]7O[C@H](CO)[C@@H](O)[C@H](O)[C@H]7O)[C@H](O)[C@H]6O)CC[C@]5(C)[C@H]4CC[C@@]32C)O1 | pseudotyped | luciferase / single cycle | 30 µM | SupT1 | - | - | 43.43% |
| COc1ccc(C(CC(N)=O)N2C(=O)c3ccccc3C2=O)cc1OC | - | RT activity | 50 µg/mL | Macrophage | JR-FL | - | 49% |